Anti-infective test results gathered from many reports (values: NIAID ChemDB through PubChem).

All rows: growth or infection tests; organism: HIV-1

Blank or dashed fields: not listed here.

smiles | strain or isolate | setting | changes | cell line | method | endpoint | result
O=C(NCCCCCN1CCCN(CCCCCNC(=O)OCc2ccccc2)CCN(CCCCCNC(=O)OCc2ccccc2)CCCN(CCCCCNC(=O)OCc2ccccc2)CC1)OCc1ccccc1 | LAV |  |  | MT-4 | syncytia | EC50 | >10 µM
COc1ccc2c(c1)nc1n2C(c2c(F)cccc2F)SC1 | IIIB |  |  | MT-4 | cytopathic effect / MTT | EC50 | >7.8 µM
O=C(OCc1ccccc1)N(CCCCCN1CCCN(CCCCCN(Cc2ccccc2)C(=O)OCc2ccccc2)CCCN(CCCCCN(Cc2ccccc2)C(=O)OCc2ccccc2)CCN(CCCCCN(Cc2ccccc2)C(=O)OCc2ccccc2)CCC1)Cc1ccccc1 | LAV |  |  | MT-4 | syncytia | EC50 | >1 µM
CCSCCCCCCCCCCC(=O)OC[C@H]1O[C@@H](n2cc(C)c(=O)[nH]c2=O)C[C@@H]1F |  |  |  | CEM + CEM-SS | cytopathic effect | EC50 | 0.006 µM
c1cc(CN2CCCNCCCNCCNCCC2)cc(CN2CCCNCCCNCCNCCC2)c1 | 168.10 |  |  | SupT1 + Sup-T1 | cytopathic effect / MTT | EC50 | 0.24 µg/mL
COc1ccc(CCNc2nc(NC(=S)Nc3ccc(C)cc3)nc(Oc3cc(=O)oc4ccccc34)n2)cc1OC | IIIB |  |  | MT-4 | MTT | EC50 | 8.33 µg/mL
Cc1cn([C@H]2C[C@H](N=[N+]=[N-])[C@@H](CO)O2)c(=O)[nH]c1=O | JR-FL |  |  | Macrophage | p24 | EC50 | 0.164 µg/mL
CN=C1CN=C(c2ccc[nH]2)c2cc(Cl)ccc2N1 | IIIB |  |  | MT-4 | cytopathic effect / MTT | EC50 | >2.7 µM
c1ccc(CNCCCCCN2CCCN(CCCCCNCc3ccccc3)CCCN(CCCCCNCc3ccccc3)CCN(CCCCCNCc3ccccc3)CCC2)cc1 | LAV |  |  | MT-4 | syncytia | EC50 | 1 µM
O=[N+]([O-])c1cc(CN2CCCNCCNCCCNCC2)cc(CN2CCCNCCNCCCNCC2)c1 | RF |  |  | MT-4 | cytopathic effect / MTT | EC50 | 0.07 µg/mL
Nc1ncnc2c1ncn2CCOCP(=O)(O)O | IIIB-TIBO(0.5)(RT-L100I) |  | RT-L100I | CEM | syncytia | EC50 | 7.5 µM
CC(C)(c1ncc(-c2ccc(Cl)cc2)o1)N1CCN(C[C@@H](O)C[C@@H](Cc2nnco2)C(=O)N[C@H]2c3ccccc3OC[C@H]2O)[C@H](C(=O)NCC(F)(F)F)C1 | Q-60 Clinical isolate |  | PR-L10I N37S R41K M46I I54V I62V L63P A71V V77I V82A L90M I93L | MT-4 | p24 | EC95 | 0.031 µM
N#CCCn1c2ccc(O)cc2c2c3c(c4c5cc(O)ccc5[nH]c4c21)C(=O)NC3 |  |  |  | U1/HIV-1(PMA) + U1 | syncytia | EC50 | 0.35 µM
Nc1ncnc2c1ncn2CCOCP(=O)(O)O | IIIB |  |  | MT-2 | cytopathic effect | EC50 | >50 µM
C/C(=C(/CCO)SSCC1CCCO1)N(C=O)Cc1cnc(C)nc1N | RF |  |  | U-937/HIV-1(RF) + U-937 | p24 | EC50 | <50 µM
c1ccc2c(CN3CCCNCCNCCCNCC3)cc(CN3CCCNCCNCCCNCC3)cc2c1 | 168.10 |  |  | SupT1 + Sup-T1 | cytopathic effect / MTT | EC50 | 0.24 µg/mL
Cc1cn([C@@H]2O[C@H](CO[Si](C)(C)C(C)(C)C)C3(OS(=O)(=O)C=C3N)[C@H]2O[Si](C)(C)C(C)(C)C)c(=O)n(C)c1=O | IIIB |  |  | MT-4 |  | EC50 | 0.06 µM
O=C([O-])c1ccc(C2=C3C=CC(=N3)C(c3ccc(C(=O)[O-])cc3)=C3C=CC(=N3)C(=c3ccc(=C([O-])[O-])cc3)c3ccc([n-]3)C(c3ccc(C(=O)[O-])cc3)=C3C=CC2=N3)cc1 | BaL |  |  | MAGI cell | β-galactosidase | EC50 | 0.89 µM
COc1ccc(CCNc2nc(NC(=S)Nc3ccccc3Cl)nc(Oc3cc(=O)oc4ccccc34)n2)cc1OC | IIIB |  |  | MT-4 | MTT | EC50 | >13.75 µg/mL
COC(=O)[C@H](C)NP(=O)(OC[C@@H]1C=C[C@H](n2cc(C)c(=O)[nH]c2=O)O1)Oc1ccc(Br)cc1 | X165-9 Clinical isolate ZDV-resistant |  | RT-K20R D67N K103N T215Y | PBMC | p24 | EC50 | 0.002 µM
O=C([O-])c1cc(COc2ccc(-c3c4nc(c(-c5ccc(OCc6cc(C(=O)[O-])cc(C(=O)[O-])c6)cc5)c5ccc([n-]5)c(-c5ccc(OCc6cc(C(=O)[O-])cc(C(=O)[O-])c6)cc5)c5nc(c(-c6ccc(OCc7cc(C(=O)[O-])cc(C(=O)[O-])c7)cc6)c6ccc3[n-]6)C=C5)C=C4)cc2)cc(C(=O)[O-])c1 | BaL |  |  | MAGI cell | β-galactosidase | EC50 | 0.12 µM
COc1cc(CN2CCCNCCNCCCNCC2)c(OC)cc1CN1CCCNCCNCCCNCC1 | NL4-3 |  |  | MT-4 | cytopathic effect / MTT | EC50 | 0.02 µg/mL
COc1ccc(/C=C(\C#N)c2nc3ccccc3[nH]2)cc1O |  |  |  | H9 | p24 / ELISA | EC50 | 0.0686 µM
COc1ccc(CCNc2nc(NC(=S)Nc3ccc(F)cc3)nc(Oc3cc(=O)oc4ccccc34)n2)cc1OC | IIIB |  |  | MT-4 | MTT | EC50 | >14.55 µg/mL
CCC(C)[C@H](NC(=O)[C@H](C(C)C)[C@@H](O)[C@H](O)[C@H](CC1CCCCC1)NC(=O)c1ccccc1OCSc1ccccc1)C(=O)NCc1nc2ccccc2[nH]1 | D34 |  |  | PBMC | p24 | EC50 | <0.001 µM
COc1ccc(CCNc2nc(NC(=O)Nc3ccc(C)cc3)nc(Oc3cc(=O)oc4ccccc34)n2)cc1OC | IIIB |  |  | MT-4 | MTT | EC50 | >74.98 µg/mL
Nc1ccn([C@H]2CC[C@@H](CO)O2)c(=O)n1 | Clinical isolate | clinical isolate | RT-I50V K70R I135V T215Y | MT-4 |  | EC50 | 0.75 µM
CCc1cc(NCc2nc3c(Cl)ccc(Cl)c3o2)c(=O)[nH]c1C | IIIB-Nevirapine(0.1)(RT-Y181C) |  | RT-Y181C | CEM | syncytia | EC50 | 0.84 µg/mL
Cn1c2ccccc2c2c3c(c4c5ccccc5n(CC(F)F)c4c21)CNC3=O |  |  |  | U1/HIV-1(PMA) + U1 | p24 | EC50 | 0.08 µM
CC[C@H](C)[C@@H](C(=O)O)n1sc2ccccc2c1=O | LAV-Bru |  |  | PBMC | p24 / RT activity | EC50 | 8.5 µM
Fc1ccc2nc3n(c2c1)C(c1c(F)cccc1Cl)SC3 | IIIB |  |  | MT-4 | cytopathic effect / MTT | EC50 | >28.2 µM
CCOP(=O)(/C=C\n1ccc(N)nc1=O)OCC | IIIB |  |  | CEM + CEM-SS |  | EC50 | >200 µM
CC1CNCCN1S(=O)(=O)c1cccc2cnccc12 |  |  |  | U1/HIV-1(PMA) + U1 | syncytia | EC50 | 1.6 µM
Cc1ccnc2c1NC(=O)c1cccnc1N2C1CC1 | WT |  |  | MT-4 | cytopathic effect / MTT | EC50 | 0.4 µM
CC(C)(c1ncc(-c2ccc(F)cc2)o1)N1CCN(C[C@@H](O)C[C@@H](Cc2nnco2)C(=O)N[C@H]2c3ccccc3OC[C@H]2O)[C@H](C(=O)NCC(F)(F)F)C1 | V-18 Clinical isolate |  | PR-L10I M36I N37D M46I R57K L63P A71V G73S I84V L90M I93L | MT-4 | p24 | EC95 | 0.125 µM
C1CNCCNCCCNCCNC1 | LAV |  |  | MT-4 | syncytia | EC50 | 10 µM
O=C(N[C@H]1c2ccccc2OC[C@H]1O)[C@H](Cc1nnc(-c2ccccc2)o1)C[C@H](O)CN1CCN(Cc2ccc(-c3ccc(Cl)cc3)o2)C[C@H]1C(=O)NCC(F)(F)F | Q-60 Clinical isolate |  | PR-L10I N37S R41K M46I I54V I62V L63P A71V V77I V82A L90M I93L | MT-4 | p24 | EC95 | 0.063 µM
CCOP(=O)(/C=C/n1cc(I)c(=O)[nH]c1=O)OCC | IIIB |  |  | CEM + CEM-SS |  | EC50 | >200 µM
Fc1c(F)c(CN2CCCNCCNCCCNCC2)c(F)c(F)c1CN1CCCNCCNCCCNCC1 | RF |  |  | MT-4 | cytopathic effect / MTT | EC50 | 0.08 µg/mL
CCOP(=O)(/C=C\n1cc(CO)c(=O)[nH]c1=O)OCC | IIIB |  |  | CEM + CEM-SS |  | EC50 | >200 µM
COc1ccc(CCNc2nc(NC(=O)Nc3cccc(C)c3)nc(Oc3cc(=O)oc4ccccc34)n2)cc1OC | IIIB |  |  | MT-4 | MTT | EC50 | >22.45 µg/mL
Cc1cn([C@H]2C[C@H](N=[N+]=[N-])[C@@H](CO)O2)c(=O)[nH]c1=O | RTMDR |  | RT-M41L T215Y | PBMC | p24 | EC50 | >10 µM
O=c1[nH]cnc2c1ncn2[C@H]1CC[C@@H](CO)O1 | IIIB-Pyridinone(0.1)(RT-V179N |  | RT-V179N | CEM | syncytia | EC50 | 8.7 µM
O=C(O)c1cc(CN2CCCNCCNCCCNCC2)ccc1CN1CCCNCCNCCCNCC1 | NL4-3 |  | AMD3100-resistant | MT-4 | cytopathic effect / MTT | EC50 | >250 µg/mL
CCCc1nnc(C[C@H](C[C@H](O)CN2CCN(Cc3ccc(-c4ccc(Cl)cc4)o3)C[C@H]2C(=O)NCC(F)(F)F)C(=O)N[C@H]2c3ccccc3OC[C@H]2O)o1 | K-60 Clinical isolate |  | PR-L10I M46I I54V Q58E L63P I64V V77I V82F I84V L90M I93L | MT-4 | p24 | EC50 | <0.008 µM
Cc1cn([C@H]2C[C@H](F)[C@@H](COC(=O)CCCCCCCCCCCBr)O2)c(=O)[nH]c1=O |  |  |  | CEM + CEM-SS | cytopathic effect | EC50 | 0.025 µM
CCC(C)[C@H](NC(=O)[C@H](C(C)C)[C@@H](O)[C@H](O)[C@H](CC1CCCCC1)NC(=O)[C@H](Cc1cnc[nH]1)NC(=O)COc1cccc2ccccc12)C(=O)NCc1ccccn1 | D34 |  |  | PBMC | p24 | EC50 | 0.001–0.01 µM
O=C(c1ccccc1)c1ccc2nc3n(c2c1)C(c1c(F)cccc1Cl)SC3 | IIIB |  |  | MT-4 | cytopathic effect / MTT | EC50 | >1.2 µM
CCCCCCCCCCCCCC(=O)OC[C@H]1O[C@@H](n2cc(C)c(=O)[nH]c2=O)C[C@@H]1F |  |  |  | CEM + CEM-SS | cytopathic effect | EC50 | 0.0445 µM
CCC(C)[C@H](NC(=O)[C@H](C(C)C)[C@@H](O)[C@H](O)[C@H](CC1CCCCC1)NC(=O)c1ccccc1OCCOc1ccccc1)C(=O)NCc1nc2ccccc2[nH]1 | D34 |  |  | PBMC | p24 | EC50 | 0.1–1 µM
CCSCCCCCCCCCCCC(=O)OC[C@H]1O[C@@H](n2cc(C)c(=O)[nH]c2=O)C[C@@H]1F |  |  |  | CEM + CEM-SS | cytopathic effect | EC50 | 0.016 µM
CCCc1nnc(C[C@H](C[C@H](O)CN2CCN(C(C)(C)c3ncc(-c4ccc(F)cc4)o3)C[C@H]2C(=O)NCC(F)(F)F)C(=O)N[C@H]2c3ccccc3OC[C@H]2O)o1 | K-60 Clinical isolate |  | PR-L10I M46I I54V Q58E L63P I64V V77I V82F I84V L90M I93L | MT-4 | p24 | EC95 | 0.016 µM
CC(=O)Nc1nc2c(ncn2/C=C/P(=O)(O)O)c(=O)[nH]1 | IIIB |  |  | CEM + CEM-SS |  | EC50 | >200 µM
O=C(NCCCCN1CCCN(CCCCNC(=O)OCc2ccccc2)CCCN(CCCCNC(=O)OCc2ccccc2)CCN(CCCCNC(=O)OCc2ccccc2)CCC1)OCc1ccccc1 | LAV |  |  | MT-4 | syncytia | EC50 | >50 µM
CC(C)(C)NC(=O)[C@@H]1CN(Cc2cccnc2)CCN1C[C@@H](O)C[C@@H](Cc1ccccc1)C(=O)N[C@H]1c2ccccc2C[C@H]1O | NL4-3 B |  |  | MT-4 | cytopathic effect / MTT | EC50 | 0.012 µM
c1cc(CN2CCCNCCNCCCNCC2)ccc1CN1CCCNCCNCCCNCC1 | BaL |  |  | MAGI cell | β-galactosidase | EC50 | >0.2 µM
O=C(N[C@H]1c2ccccc2OC[C@H]1O)[C@H](Cc1nnco1)C[C@H](O)CN1CCN(Cc2ccc(-c3ccc(Cl)cc3)o2)C[C@H]1C(=O)NCC(F)(F)F | K-60 Clinical isolate |  | PR-L10I M46I I54V Q58E L63P I64V V77I V82F I84V L90M I93L | MT-4 | p24 | EC95 | 0.063 µM
CCOP(=O)(/C=C\n1cc(F)c(=O)[nH]c1=O)OCC | IIIB |  |  | CEM + CEM-SS |  | EC50 | >200 µM
c1ncc(CN2CCCNCCNCCCNCC2)cc1CN1CCCNCCNCCCNCC1 | AOM |  |  | MT-4 | cytopathic effect / MTT | EC50 | 0.05 µg/mL
O=c1ccn([C@H]2C[C@H](F)[C@@H](CO)O2)c(=O)[nH]1 | IIIB |  |  | MT-4 | cytopathic effect / trypan blue | EC50 | 0.275 µM
CC(=O)N1CCC(C(=O)N(CCCN2CCC(Cc3ccc(C(N)=O)cc3)CC2)c2ccc(C)c(Cl)c2)CC1 | R5 subtype E_1 recombinant |  |  | U87 (CD4+ CCR5+) + U87 | luciferase | EC50 | 0.0015 µM
Cc1cccc2c1nc1n2C(c2c(F)cccc2Cl)SC1 | IIIB |  |  | MT-4 | cytopathic effect / MTT | EC50 | 1.9 µM
CCNc1cccnc1N1CCN(C(=O)c2cc3cc(OC)ccc3[nH]2)CC1 | IIIB-Nevirapine(0.1)(RT-Y181C) |  | RT-Y181C | CEM | syncytia | EC50 | 0.067 µg/mL
CCOCn1c(Cc2ccccc2)c(C(C)C)c(=O)[nH]c1=O | IIIB WT |  |  | MT-4 | cytopathic effect / MTT | EC50 | 0.0079 µM
Cc1cn([C@@H]2O[C@H](CO[Si](C)(C)C(C)(C)C)C3(OC(=O)N=C3N)[C@H]2O[Si](C)(C)C(C)(C)C)c(=O)[nH]c1=O | IIIB |  |  | MT-4 |  | EC50 | >35 µM

ECn: concentration that inhibits the pathogen or its effect by n%. Two numbers with a dash give a range or band. Conditions beyond the fields shown may differ between rows.